Reference: paper doi:10.1101/2021.05.31.446396v1

Test system: Nc1ncnc2c1ncn2[C@@H]1O[C@H](COP(=O)(O)OP(=O)(O)OP(=O)(O)O)[C@@H](O)[C@H]1O
Assay: purified protein
Details: pH 7.5; 37.0 °C

## (Mycobacterium tuberculosis H37Rv)
  Km: 0.02 ± 0.01 mM
